The values below come from article PMC9827704.

Protein sequences can lack the tags named with them.

Data set [1] has as its system T1, Zur (Pseudomonas aeruginosa).
T1 sequence (looked up): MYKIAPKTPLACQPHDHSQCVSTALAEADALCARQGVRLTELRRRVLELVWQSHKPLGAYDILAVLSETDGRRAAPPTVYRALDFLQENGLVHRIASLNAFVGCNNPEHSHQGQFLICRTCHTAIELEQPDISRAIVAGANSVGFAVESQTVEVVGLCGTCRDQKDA
The experiment in a line: DNase I footprinting. The following applies: 5 uM Zn, 1 uM Zur, footprint: 50 ng DNA, 40 uL EMSA buffer, 30 min room temperature, recombinant protein, residues 1-167, label: 5' 6FAM on either strand (labelled independently), probe letters rebuilt from the primers and the genome. Background: A gel shift assay detects complexes by their altered migration in electrophoresis.

The test system is the same in data set [2]. The experiment in a line: EMSA. The conditions noted are these: Zn; EMSA: 25 ng DNA per reaction, buffer as in earlier work (ref 7, not given), Zn added; recombinant protein; residues 1-167; probe letters rebuilt from the primers and the genome.

Take “ACTTCGGCAACCTTCGAAGAGACTGGCAATAGTTGGATGAAACATAGGGACAAAAGCAACATGCGCTTACAAAAGGCATTGCCCCTCACGCCCAGCGGTGCTTGCGCCGCGGACATTTCCAAAGTTCTCAGGCGGTCTCCCGGGAGAACTACCCGGTCATTCGATAATTATCATCGAAGCAGCGCAACGATATGAAATTACATTTCCAGGATTCTATCCAGGCAACGCCCGAAATGTAACTTTATAGCAATGCACTTAAACATTTACTTGCAAATGAATCCATACTTTATATAGGGGCGAACATGCGCATCCTTATTATCGAAGATGAAGTCAAGACTGCCGACTACCTGCACC (double strand) [czcR promoter footprint probe]”: the binding result in data set [1] is “binds”.

In the case of “GCCAGATCTGTTCGCCCCTATATAAAGTATGGATTCATTTGCAAGTAAATGTTTAAGTGCATTGCTATAAAGTTACATTTCGGGCGTTGCCTGGATAGAATCCTGGAAATGTAATTTCATATCGTTGCGCTGCTTCGATGATAATTATCGAATGACCGGGTAGTTCTCCCGGGAGACCGCCTGAGAACTTTGGAAATGTCCGCGGCGCAAGCACCGCTGGGCGTGAGGGGCAATGCCTTTTGTAAGCGCATGTTGCTTTTGTCCCTATGTTTCATCCAACTATTGCCAGTCTCTTCGAAGGTTGCCGAAGTGGTACCGGC (double strand) [czcR 5'-UTR wt]”, the binding result in data set [2] is reported as “binds”.
